# Changes are numbered by the printed parent chain. Human monoclonal antibodies against the spike receptor-binding domain (heavy:light variable regions). IC50 against pseudoviruses bearing the spike of naturally observed variants; lower = stronger; >10 µg/ml means not reached at the top dose. No active / inactive call. The stated detection limit is 0.0005 µg/ml; values near or below 0.001 µg/ml lie at the floor of the assay.
# B1: S2X35 (protein)
# chain 1: QVQLVQSGAEVKKPGASVKVSCKASGYTFTNYGISWVRQAPGQGLEWMGWISAYKGNTNYAQKLQGRVTMTTDTSTSTAYMELRSLRSDDTAVYYCARPDYQVLGYDFWIGYYGMDVWGQGTTVIVSS
# chain 2: QSVLTQPPSVSGAPGQRVTISCTGSSSNIGAGYDVHWYQQLPGTAPKLLIYGNTNRPSGVPDRFSGSKSGTSASLAITGLQAEDEADYYCQSYDSSLSGSEVVFGGGTKLTVL
# B2: BD-771 (protein)
# chain 1: EVQLVESGGGFVKPGGSLRLSCAASGFKFSDAWMNWVRQAPGKGLEWVGRIKSKADGQTTDYAAPVKGRFSISRDDSKNTLFLQIHNLESDDTAVYYCTTGALVESRYFDWFTGYYFDYWGQGTLVTVSS
# chain 2: DIQMTQSPSSLSASVGDRVTITCRTSQGIYNYLAWYQQKPGKVPKLLIYGASTLQSGVPSRFSGSGSGTDFTLTISSLQPEDVATYYCQKYKSAPLTFGGGTKVEIK
# B3: BD-643 (protein)
# chain 1: EVQLVESGGGLVQPGGSLRLSCAASGFTFSYAYWVRQVPGKGLLWVSRVNDDGSTNYPDSVKGRFTISRDNARNTLFLQMNSLRAEDTAVYYCVRQSIMTSYYGVDVWGQGTTVTVAS
# chain 2: DVVMTQSQLSLPVTLGQPASISCRSSQSLVHSDGNTYLNWFQQRPGQSPRRLIYKVSNRDSGVPDRFSGSGSGTDFTLKISRVEAEDVAVYYCMQGTHWPPTFGGGTKVEIK
# B4: BD55-347 (protein)
# chain 1: QVQLVESGGGVVQPGRSLRLSCAVSGFTFRSYAMHWVRQAPGKGLEWVAVTSHDGSDKYYADSVKGRFTISRDNSKNTLYLQVSSLRTEDTAVYFCARDNSGGYCRRSRCYSYSFPDNWGQGTLVTVSS
# chain 2: NFMLTQPHSVSESPGKTVTISCTGSSGNIASSYVQWYQQRPGSAPTTVIYEDNQRPSGVPDRFSGSVDSSSNSASLTISGLKTADEADYYCQSFDSSHHVVFGGGTKLTVL
# B5: BD-751 (protein)
# chain 1: QVQLVESGGGVVQPGRSLRLSCAASIFTFSSYAMHWVRQAPGKGPEWLAVISDDGNAKFYADSVKGRFTISRDNSKNTLYLQMNSLRAEDTAVYYCARDGDDIRGYFFDDWGQGTLVTVSS
# chain 2: DIQMTQSPSSLSASVGDRVTITCRASQGITNSLAWYQQKPGKAPKLLLYAASRLKSGVPSRFSGSGSGTDYTLTISSLQPEDFATYYCQQYYSTLALTFGGGTKVEVK
# B6: BD-796 (protein)
# chain 1: QVQLVQSGAEVKKPGSSVKVSCKASGGTFSSYAINWMRQAPGQGLEWMGGIIPILGIPNSAQKFQGRVTITADKSTSTAYMELSSLRSEDTAVYYCARMYNYDSSGLEADAFDIWGQGTMVTVSS
# chain 2: QSVLTQPPSVSGAPGQRVTISCTGSSSNIGAGYDVHWYQQLPGTAPKLLIYGNSNRPSGVPDRFSGSKSGTSASLAITGLQAEDEADYYCQSYDSSLSGVVFGGGTKLTVL
# B7: BD55-387 (protein)
# chain 1: QITLKESGPTLVKPTQTLTLTCTFSGFSLSTSGVGVGWIRQPPGKALEWLALIYWDDDKRYSPALKSRLTITEDTSKNQVVLTMTNMDPVDTATYYCAHCAPAWNYFDYWGQGTLVAVSS
# chain 2: B6 chain 2 with G52R, D62G, Y89F, V100W
# B8: BD55-316 (protein)
# chain 1: EVQLVESGGGLVQPGGSLRLSCAASGFTFSSYYMNWVRQAPGKGLEWVANIKEDGSEKYYADSVRGRFTISRDNAKNSLFLQMSSLRAEDTAVYYCAGQLWLRGWFDPWGQGTLVSVSS
# chain 2: NFMLTQPHSVSESPGKTVTISCTHSRGNIASNYVQWYQHRPDSAPTTVIYEDNQRPSGVPDRFSGSIDSSSNSASLTISGLKTEDEADYYCQSFDTSNHPSWIFGGGTKLTVL
# B9: BD-791 (protein)
# chain 1: QVQLVQSGAEVKKPGSSVKVSCKASGGTFSRFAISWVRQAPGQGLEWMGGIIPMFGTTNYAQKFQGRVSISADESTSTAYMELSSLRSEDTAVYYCATVTHRSGYYGHWYFDLWGRGTLVTVSS
# chain 2: DIVMTQTPLSLSVTPGQPASISCKSSQSLLHSDGKTYLYWYLQKPGQSPQLLIYEVSNRFSGVPDRFSGSGSGTDFTLKISRVEAEDVGVYYCMQSIQPPPTFGGGTKVEIK
# B10: BD-667 (protein)
# chain 1: QVQLVESGGGLVKPGGSLRLSCAASGFRFSDYYMNWIRQAPGKGLEWISYIGSGGFATYYGDSVKGRFTVSRDDAENSLYLQMNSLRAEDTAVYYCARGVTSYSDNSGNYRTDDAFDIWGQGTMVTVSS
# chain 2: EIVMTQSPATLSVSPGERATLSCRASQSVSRNLAWYQQRPGQAPRLLIYGASTRATGVAARFTGSGFGTEFTLTISGLQSEDFAVYYCQEYNNWPPWTFGQGTKVEIK
# B11: BD-801 (protein)
# chain 1: DVQLVESGGGLVQPGGSRRLSCAASGFMFSSYWMNWVRQAPGKGLEWVASIKEDGSEKYYVDSVKGRFTISRDNAKNSLFLQMNSLRAEDTAVYYCARKCRGYYDRSGYYYKCAFDIWGQGTMVTVSS
# chain 2: YVLTQPPSVSVAPGKTARITCGGNNLGTNSVHWYQQKPGQAPVLVMYYDSDRPSGIPERFSGSNSGNTATLTISRVDAGDEADYYCQVWDSSSDHWVFGGGTKLTVL
# B12: BD-755 (protein)
# chain 1: QVQLVQSGAEVKKPGSSVKVSCKASGGTFSSYSITWVRQAPGQGLEWMGRIFPILGVANHAQKFQGRVRITADKFTSTAYMELSSLRSEDAAIYYCARDSYGPGSQNNWFDPWGQGTLVTVSS
# chain 2: QSVLTQPPSVSGAPGQRVTISCTGSDSNIGAGYDVHWYQQLPGTAPKLLISAYSNRPSGVPDRFSGSKSDTSASLAITGLQADDEADYYCQSYDSGLTGEIFGGGTKLTIL
# Target: SARS-CoV-2 Omicron BA.1 spike pseudovirus
# Test: pseudovirus neutralization IC50; higher = weaker neutralization
# Experimental: (§1)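 Single-round VSV luciferase pseudovirus mixed with antibody dilutions for 1 h and put on Huh-7 cells for about a day; IC50 from the dose curve.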
row,Binder,pseudovirus neutralization IC50 [µg/mL]
1,B1,> 10
2,B2,0.0309
3,B3,> 10
4,B4,2.46
5,B5,3.99
6,B6,3.19
7,B7,1.57
8,B8,> 10
9,B9,> 10
10,B10,> 10
11,B11,2.64
12,B12,0.368

# Target: SARS-CoV-2 Omicron BA.2 spike pseudovirus
# Test: as above
# Experimental: as §1
row,Binder,pseudovirus neutralization IC50 [µg/mL]
1,B1,> 10
2,B2,0.04
3,B3,> 10
4,B4,> 10
5,B5,> 10
6,B6,2.42
7,B7,0.878
8,B8,> 10
9,B9,> 10
10,B10,0.646
11,B11,> 10
12,B12,0.246

# Target: SARS-CoV-2 Omicron BA.2.75 spike pseudovirus
# Test: as above
# Experimental: as §1
row,Binder,pseudovirus neutralization IC50 [µg/mL]
1,B1,> 10
2,B2,> 10
3,B3,> 10
4,B4,> 10
5,B5,> 10
6,B6,2.03
7,B7,1.13
8,B8,> 10
9,B9,> 10
10,B10,1.25
11,B11,> 10
12,B12,0.48

# Target: SARS-CoV-2 Omicron BA.5 spike pseudovirus
# Test: as above
# Experimental: as §1
row,Binder,pseudovirus neutralization IC50 [µg/mL]
1,B1,> 10
2,B2,> 10
3,B3,> 10
4,B4,> 10
5,B5,> 10
6,B6,> 10
7,B7,0.757
8,B8,> 10
9,B9,> 10
10,B10,> 10
11,B11,> 10
12,B12,> 10

# Target: SARS-CoV-2 Omicron BQ.1.1 spike pseudovirus
# Test: as above
# Experimental: as §1
row,Binder,pseudovirus neutralization IC50 [µg/mL]
1,B1,> 10
2,B2,> 10
3,B3,> 10
4,B4,> 10
5,B5,> 10
6,B6,> 10
7,B7,> 10
8,B8,> 10
9,B9,> 10
10,B10,> 10
11,B11,> 10
12,B12,> 10

# Target: SARS-CoV-2 Omicron XBB spike pseudovirus
# Test: as above
# Experimental: as §1
row,Binder,pseudovirus neutralization IC50 [µg/mL]
1,B1,> 10
2,B2,> 10
3,B3,> 10
4,B4,> 10
5,B5,> 10
6,B6,> 10
7,B7,> 10
8,B8,> 10
9,B9,> 10
10,B10,> 10
11,B11,> 10
12,B12,> 10

# Target: SARS-CoV-2 early D614G spike pseudovirus
# Test: as above
# Experimental: as §1
row,Binder,pseudovirus neutralization IC50 [µg/mL]
1,B1,0.0286
2,B2,0.002
3,B3,0.588
4,B4,0.362
5,B5,0.473
6,B6,0.25
7,B7,0.535
8,B8,0.23
9,B9,0.104
10,B10,1.11
11,B11,0.103
12,B12,0.08
